Pooled drug test results. Numbers come from NIAID ChemDB, via PubChem.

Common to all: target-level tests; agent: HIV-1; protein: Reverse transcriptase

ICn: concentration for n% inhibition. An empty or dashed field is not shown. Lines come from different laboratories, so protocols vary.

SMILES	read by	changes	strain	measure	value
CC(C)=CCCC(C)C1C(O)C/C(C)=C/C/C=C(/C=O)C1C=O	radiometric	-	-	IC50	4.3 µg/mL
O=C(Cc1cccc(CC(=O)Nc2ccc(Br)cc2C(=O)O)c1)Nc1ccc(Br)cc1C(=O)O	-	-	-	IC50	>100 µg/mL
CCOC(CC(=O)OC)n1ccc(=O)[nH]c1=O	ELISA	-	-	IC50	1 µM
Cc1nnc2c3ccccc3c(N3CCc4ccc(N)cc4C3)nn12	RT activity / fluorescence	-	IIIB	IC50	3.33 µM
O=C(Nc1ccc(Br)cc1C(=O)O)c1cncc(C(=O)Nc2ccc(Br)cc2C(=O)O)c1	-	-	-	IC50	>100 µg/mL
O=C1CSC(c2ccccc2Cl)N1CCO	RT activity / absorbance	-	-	IC50	14.08 µM
CCOC(CC(=O)OCC(C)C)n1ccc(=O)[nH]c1=O	ELISA	-	-	IC50	16.5 µM
Nc1nc2c(ncn2[C@H]2CO[C@@H](COP(=O)(O)OP(=O)(O)OP(=O)(O)O)O2)c(=O)[nH]1	radiometric	-	WT	Ki	0.05 µM
O=C(O[C@@H]1O[C@@H]2COC(=O)c3cc(O)c(O)c(O)c3-c3c(cc(O)c(O)c3O)C(=O)O[C@H]2[C@@H]2OC(=O)c3cc(O)c(O)c(O)c3-c3c(cc(O)c(O)c3O)C(=O)O[C@@H]12)c1cc(O)c(O)c(Oc2c(O)c(O)c(O)c3c2C(=O)O[C@H]2[C@@H]4OC(=O)c5cc(O)c(O)c(O)c5-c5c(cc(O)c(O)c5O)C(=O)O[C@H]4[C@@H](OC(=O)c4cc(O)c(O)c(O)c4)O[C@@H]2COC(=O)c2cc(O)c(O)c(O)c2-3)c1	nucleotide incorporation	-	-	IC50	>20 µg/mL
Oc1cc2c(cc1O)CN(c1nn3c(C4CC4)nnc3c3ccccc13)CC2	RT activity / fluorescence	-	IIIB	IC50	1.85 µM
O=C1CSC(c2c(Cl)cccc2Cl)N1CCO	RT activity / absorbance	-	-	IC50	>100 µM
O=C1OC2C(COC(=O)c3cc(O)c(O)c(O)c3)OC(OC(=O)c3cc(O)c(O)c(O)c3)C(OC(=O)c3cc(O)c(O)c4c3[C@@H]3C1=CC(=O)C(O)(O)C3(O)O4)C2OC(=O)c1cc(O)c(O)c(O)c1	nucleotide incorporation	-	-	IC50	>20 µg/mL
CCCCCCCCCCCCCCCC(=O)NC1C(COP(=O)(O)OC2C(O)C(COP(=O)(O)OC3C(O)C(CO)OC3n3cnc4c(N)ncnc43)OC2n2cnc3c(N)ncnc32)OC(n2cnc3c(N)ncnc32)C1O	-	-	-	IC50	>100 µM
Nc1sc2c(c1C(=O)Nc1ccccc1O)CCCCC2	nucleotide incorporation / fluorescence	-	-	IC50	78 µM
COc1cccc(F)c1C1SCC(=O)N1c1nccc(C)n1	nucleotide incorporation / radiometric	-	-	IC50	9.7 µM
COc1ccc(C)cc1CS(=O)(=O)c1cccc[n+]1[O-]	nucleotide incorporation / radiometric	-	-	IC50	94 µg/mL
Nc1ccc2c(c1)CN(c1nn3c(-c4cccs4)nnc3c3ccccc13)CC2	RT activity / fluorescence	-	KER2008	IC50	2.78 µM
CCCCCCCCCCCCCCCC(=O)NC1C(COP(=O)(O)OC2CC(COP(=O)(O)OC3CC(CO)OC3n3cnc4c(N)ncnc43)OC2n2cnc3c(N)ncnc32)OC(n2cnc3c(N)ncnc32)C1O	-	-	-	IC50	~100 µM
CCOC(=O)CN1C(=O)CSC1c1c(Cl)cccc1Cl	RT activity / absorbance	-	-	IC50	>100 µM
NC(=O)c1c(NC(=O)c2ccc(O)c(O)c2)sc2c1CCCCC2	nucleotide incorporation / fluorescence	-	-	IC50	>100 µM
O=C1Cc2ccc(-c3ccco3)cc2C(=O)N1O	RT activity / nucleotide incorporation / absorbance	-	-	Ki	0.14 µM
CC(C)(C)c1ccnc(C(=O)Nc2cc(Cl)c(Cl)cc2NC(=O)c2cc(C(C)(C)C)ccn2)c1	ELISA	-	-	IC50	>6 µM
COC(=O)c1cc(C(=C2CCN(C(=O)OC)CC2)c2cc(C)c(OC)c(C(=O)OC)c2)cc(C)c1OC	nucleotide incorporation	-	-	IC50	>100 µM
CCOC(CC(=O)OCC(C)C)n1cc(C)c(=O)[nH]c1=O	ELISA	-	-	IC50	7 µM
COc1cc(O)c2c(c1)C(=O)c1cc(C)cc(O)c1C2=O	RNase H / radiometric	-	-	IC50	>100 µM
O=C(O[C@@H]1[C@H](c2c(O)cc(O)c3c2O[C@H](c2ccc(O)c(O)c2)[C@H](OC(=O)c2cc(O)c(O)c(O)c2)C3)c2c(O)cc(O)c([C@H]3c4c(O)cc(O)cc4O[C@H](c4ccc(O)c(O)c4)[C@@H]3OC(=O)c3cc(O)c(O)c(O)c3)c2O[C@@H]1c1ccc(O)c(O)c1)c1cc(O)c(O)c(O)c1	nucleotide incorporation	-	-	IC50	>20 µg/mL
C[C@H]1/C=C/[C@@]2(C)CC[C@@H](C(C)(C)O)[C@@H]2[C@@H](O)C[C@](C)(O)/C=C/C1	nucleotide incorporation / radiometric	-	-	IC50	<40 µM
CCOC(=O)CN1C(=O)CSC1c1ccccc1	RT activity / absorbance	-	-	IC50	38.01 µM
O=C(OC1[C@H](OC(=O)c2cc(O)c(O)c(O)c2)CC(OC(=O)c2cc(O)c(O)c(O)c2)(C(=O)O)C[C@H]1OC(=O)c1cc(O)c(O)c(O)c1)c1cc(O)c(O)c(O)c1	nucleotide incorporation	-	-	IC50	<30 µM
N#Cc1cc(Cl)cc(Oc2c(Br)ccc(CC(=O)Nc3ccc(S(N)(=O)=O)cc3Cl)c2F)c1	radiometric	-	-	IC50	0.0081 µM
Cc1cc(C)c(CS(=O)c2cccc[n+]2[O-])c(C)c1	nucleotide incorporation / radiometric	-	-	IC50	>500 µg/mL
CCCOC(=O)CC(OCC)n1cc(C)c(=O)[nH]c1=O	ELISA	-	-	IC50	2.4 µM
Cc1cn([C@H]2C[C@H](N=[N+]=[N-])[C@@H](COS(=O)(=O)NC(=O)OCP(=O)(O)O)O2)c(=O)[nH]c1=O	-	-	-	IC50	300 µM
NS(=O)(=O)c1ccc(NC(=O)c2ccccc2SSc2ccccc2C(=O)Nc2ccc(S(N)(=O)=O)cc2)cc1	-	-	-	IC50	>100 µM
COc1ccccc1NC(=O)c1c(N)sc2c1CCCCC2	nucleotide incorporation / fluorescence	-	-	IC50	51 µM
Cc1ccccc1NC(=O)CSc1ncnn1-c1ccc(Cl)cc1Cl	absorbance	-	-	IC50	>471 µM
COc1cccc(-c2nc3sc4c(c3c(=O)o2)CCCCC4)c1	nucleotide incorporation / fluorescence	-	-	IC50	67.3 µM
CCOC(=O)C(=O)CC(=O)/C=C/c1cccn1Cc1ccccc1Cl	RNase H / radiometric	-	-	IC50	7.4 µM
Nc1ccn([C@H]2CC[C@@H](COP(=O)(O)OP(=O)(O)OP(=O)(O)O)O2)c(=O)n1	nucleotide incorporation / radiometric	RT-1(IIIB)	IIIB	Ki	3.3 µM
COC(=O)CCCC(=O)N1CCC(=C(c2cc(C)c(OC)c(C(=O)OC)c2)c2cc(C)c(OC)c(C(=O)OC)c2)CC1	nucleotide incorporation	-	-	IC50	>100 µM
CCNCC(=O)Nc1ccc(-c2nc(=O)n(CCOC)c3c2oc2ccc(Cl)cc23)cc1	PicoGreen / fluorescence	-	BH10	IC50	0.12 µM
O=C(CCCCC(=O)Nc1ccccc1C(=O)O)Nc1ccc(Br)cc1	-	-	-	IC50	>100 µg/mL
COc1ccc(-c2nc3sc4c(c3c(=O)o2)CCCCC4)cc1	nucleotide incorporation / fluorescence	-	-	IC50	>100 µM
C=c1c2ccccc2c(=C2CCN(C(=O)OC)CC2)c2ccccc12	nucleotide incorporation	-	-	IC50	>100 µM
O=P(O)(O)OP(=O)(O)O	nucleotide incorporation / radiometric	RT-Q151N	-	Ki	316 µM
O=c1oc(-c2ccc(O)c(O)c2)nc2sc3c(c12)CCCCC3	nucleotide incorporation / fluorescence	-	-	IC50	9.1 µM
N#Cc1cc(Cl)cc(Oc2ccc(Cl)cc2OCC(=O)c2ccc(-c3ccc(OCC(=O)O)cc3)cc2)c1	RT activity / ELISA / absorbance	-	-	IC50	1.9 µM
O=C(O)c1cn(CC2(c3ccccc3)CCCC2)cc(O)c1=O	nucleotide incorporation / radiometric	-	-	IC50	8.2 µM
Cc1ccc(C)c(CS(=O)c2ccc(Cl)c[n+]2[O-])c1	nucleotide incorporation / radiometric	-	-	IC50	>500 µg/mL
Cc1ccc(CS(=O)(=O)n2c(=O)[nH]c3ccc(Cl)cc32)cc1	RT activity / fluorescence	-	-	IC50	0.79 µM
COc1nnc2c3ccccc3c(N3CCc4ccc(N)cc4C3)nn12	RT activity / fluorescence	-	98US_MSC5016	IC50	5.05 µM
O=S(=O)(O)c1ccc(-c2c3nc(c(-c4ccc(S(=O)(=O)O)cc4)c4ccc([nH]4)c(-c4ccc(S(=O)(=O)O)cc4)c4nc(c(-c5ccc(S(=O)(=O)O)cc5)c5ccc2[nH]5)C=C4)C=C3)cc1	ELISA	-	-	IC50	>6 µM
CO[C@H]1C(=O)OCC[C@H](O)c2cc(Cl)c3c(c2)[C@H](O)C[C@@H](O)C2(CO[C@]4(O)C(=C(C)C(=O)C15OC54)O2)[C@@H]3O	fluorescence	-	-	IC50	13.98 µM
O=C(O)C1=C[C@@H](OC(=O)c2cc(O)c(O)c(O)c2)[C@@H](OC(=O)c2cc(O)c(O)c(O)c2)[C@H](OC(=O)c2cc(O)c(O)c(O)c2)C1	nucleotide incorporation	-	-	IC50	>50 µg/mL

A second listing of 6 rows from above:

SMILES	read by	changes	strain	measure	value
COc1ccccc1NC(=O)c1c(N)sc2c1CCCCC2	nucleotide incorporation / fluorescence	-	-	IC50	51 µM
Nc1ccn([C@H]2CC[C@@H](COP(=O)(O)OP(=O)(O)OP(=O)(O)O)O2)c(=O)n1	nucleotide incorporation / radiometric	RT-1(IIIB)	IIIB	Ki	3.3 µM
Cc1ccccc1NC(=O)CSc1ncnn1-c1ccc(Cl)cc1Cl	absorbance	-	-	IC50	>471 µM
C[C@H]1/C=C/[C@@]2(C)CC[C@@H](C(C)(C)O)[C@@H]2[C@@H](O)C[C@](C)(O)/C=C/C1	nucleotide incorporation / radiometric	-	-	IC50	<40 µM
O=C(O[C@@H]1O[C@@H]2COC(=O)c3cc(O)c(O)c(O)c3-c3c(cc(O)c(O)c3O)C(=O)O[C@H]2[C@@H]2OC(=O)c3cc(O)c(O)c(O)c3-c3c(cc(O)c(O)c3O)C(=O)O[C@@H]12)c1cc(O)c(O)c(Oc2c(O)c(O)c(O)c3c2C(=O)O[C@H]2[C@@H]4OC(=O)c5cc(O)c(O)c(O)c5-c5c(cc(O)c(O)c5O)C(=O)O[C@H]4[C@@H](OC(=O)c4cc(O)c(O)c(O)c4)O[C@@H]2COC(=O)c2cc(O)c(O)c(O)c2-3)c1	nucleotide incorporation	-	-	IC50	>20 µg/mL
NS(=O)(=O)c1ccc(NC(=O)c2ccccc2SSc2ccccc2C(=O)Nc2ccc(S(N)(=O)=O)cc2)cc1	-	-	-	IC50	>100 µM